Where two headings read alike, the source gives them in different places.
Tests used:
Assay in all cases: cell-based or functional assay
[1] = molecular target: SARS-CoV-2 Omicron BQ.1 spike protein (SARS-CoV-2, UniProt P0DTC2 14-1273)
[2] = molecular target: SARS-CoV-2 D614G spike protein mutant (SARS-CoV-2, UniProt P0DTC2 14-1273)
[3] = molecular target: SARS-CoV-2 Delta variant spike protein (SARS-CoV-2, UniProt P0DTC2 14-1273)
[4] = molecular target: SARS-CoV-2 spike protein, original Wuhan strain (WA1) (SARS-CoV-2, UniProt P0DTC2 14-1273)
[5] = molecular target: SARS-CoV-2 spike protein, Delta variant (SARS-CoV-2)
[6] = molecular target: SARS-CoV-2 spike protein, original Wuhan strain (WA1) (SARS-CoV-2, UniProt P0DTC2 14-1273); remark: listed apart in the source
[7] = molecular target: SARS-CoV-2 spike protein, D614G spike protein mutant (SARS-CoV-2, UniProt P0DTC2 14-1273)

B1: MX1018 (antibody)
chain: EIVMTQSPAILSVSPGERATLSCRASQSVAINLAWYQQKPGQAPRLLIYAASSRATGIPGRFSGSGSETNFTLTISSLQSGDFAVYYCQQYITWPPSYTFGQGTKLEIKGGSSGEIVMTQSPAILSVSPGERATLSCRASQSVAINLAWYQQKPGQAPRLLIYAASSRATGIPGRFSGSGSETNFTLTISSLQSGDFAVYYCQQYITWPPSYTFGQGTKLEIKGGGGSGGSGSGGGGSASGSGEVQLVESGGALIQPGGSLRLSCAASGIIVSANYMSWVRQAPGKGLEWVSVIYSGGSTFYADSVKGRFTISRDNSKNTLYLEMNSLRAEDTAVYYCARDAPILGVSDWGQGTLVTVSSGGSSGEVQLVESGGALIQPGGSLRLSCAASGIIVSANYMSWVRQAPGKGLEWVSVIYSGGSTFYADSVKGRFTISRDNSKNTLYLEMNSLRAEDTAVYYCARDAPILGVSDWGQGTLVTVSSASGGSGDKTHTCPPCPAPELLGGPSVFLFPPKPKDTLMISRTPEVTCVVVDVSHEDPEVKFNWYVDGVEVHNAKTKPREEQYNSYVVSVLTVLHQDWLNGKEYKCKVSNKALPAPIEKTISKAKGQPREPQVYTLPPSRDELTKNQVSLTCLVKGFYPSDIAVEWESNGQPENNYKTTPPVLDSDGSFFKKLTVDKSRWQQGNVFSCSVLHEALHSHYTQKSLSLSPG
[1]
  IC50, pseudovirus neutralization: 0.0513 µg/mL
  IC80, pseudovirus neutralization: 0.0983 µg/mL
[2]
  IC80, pseudovirus neutralization: 0.0581 µg/mL
[3]
  IC50, pseudovirus neutralization: 0.0513 µg/mL
  IC80, pseudovirus neutralization: 0.0983 µg/mL

B2: E12 (antibody, V domains shown)
VH: EVQLVESGGGLIQPGGSLRLSCAASGVIVSYNYMNWVRQAPGKGLEWVSVIYSGGSTFYADSVRGRFTISRDNSKNTLYLQMNSLRAEDTAVYYCARDLGPAGAFDIWGLGTMVTVSS
VL: EIVLTQSPGTLSLSPGETATLSCRASQSFSSDLAWYQQKPGQAPRLLIYGASSRATGIPDRFSGSGSGTDFTLTISRLEPADFAVYYCQQYGSSPPVTFGGGTKVEIK
[4]
  IC80, pseudovirus neutralization: 0.118 µg/mL
[5]
  IC50, pseudovirus neutralization: 0.0173 µg/mL
  IC80, pseudovirus neutralization: 0.0321 µg/mL

B3: E8 (antibody, V domains shown)
VH: QVTLRESGPALVKPTQTLTLTCTFSGFSLSTRGVCVSWIRQPPGKALEWLAFIDWDDDKYYNTSLKTRLTISKDTSKNQVVLTMTNVHPVDTATYYCARISSHHGSSWCTTFDYWGQGALVTVSA
VL: DTVMTQSPLSLPVTPGEPASISCRSSQSLLNSNGYNYLDWYVQKPGQSPQLLIYLGSNRASGVPDRFSGSGSGTDFTLKISRVEAEDVGVYYCMQPLQTPLFTFGPGTKVEIK
[4]
  IC50, pseudovirus neutralization: 0.00877 µg/mL
  IC80, pseudovirus neutralization: 0.0207 µg/mL
[5]
  IC50, pseudovirus neutralization: 0.00681 µg/mL
  IC80, pseudovirus neutralization: 0.0333 µg/mL

B4: MX1087 (antibody)
chain 1: QTVVTQEPSFSVSPGGTVTLTCGLSSGSVSTAYFPSWYQQTPGQAPRTLIYGTNTRSSGVPDRFSGSILGNKAALTITGAQADDESDYYCVLYMGRGIVVFGGGTKLTVLGGSSGEIVMTQSPAILSVSPGERATLSCRASQSVAINLAWYQQKPGQAPRLLIYAASSRATGIPGRFSGSGSETNFTLTISSLQSGDFAVYYCQQYITWPPSYTFGQGTKLEIKGGGGSGGSGSGGGGSASGSGEVQLVESGGALIQPGGSLRLSCAASGIIVSANYMSWVRQAPGKGLEWVSVIYSGGSTFYADSVKGRFTISRDNSKNTLYLEMNSLRAEDTAVYYCARDAPILGVSDWGQGTLVTVSSGGSSGQVQLVESGGGVVQPGRSLRLSCAASGFTLSSYGMHWVRQAPGKGLEWVAVISYDGSNKYYVDSVKGRFTISRDNSKNTLYLQMNSLRAEDTAVYYCRWAYWELLPDYYYGMDVWGQGTTVTVSSASGGSGDKTHTCPPCPAPELLGGPSVFLFPPKPKDTLMISRTPEVTCVVVDVSHEDPEVKFNWYVDGVEVHNAKTKPREEQYNSYVVSVLTVLHQDWLNGKEYKCKVSNKALPAPIEKTISKAKGQPREPQVYTLPPCRDELTKNQVSLWCLVKGFYPSDIAVEWESNGQPENNYKTTPPVLDSDGSFFKKLTVDKSRWQQGNVFSCSVLHEALHSHYTQKSLSLSPG
chain 2: EIVLTQSPGTLSLSPGETATLSCRASQSFSSDLAWYQQKPGQAPRLLIYGASSRATGIPDRFSGSGSGTDFTLTISRLEPADFAVYYCQQYGSSPPVTFGGGTKVEIKGGSSGDTVMTQSPLSLPVTPGEPASISCRSSQSLLNSNGYNYLDWYVQKPGQSPQLLIYLGSNRASGVPDRFSGSGSGTDFTLKISRVEAEDVGVYYCMQPLQTPLFTFGPGTKVEIKGGGGSGGSGSGGGGSASGSGQVTLRESGPALVKPTQTLTLTCTFSGFSLSTRGVCVSWIRQPPGKALEWLAFIDWDDDKYYNTSLKTRLTISKDTSKNQVVLTMTNVHPVDTATYYCARISSHHGSSWCTTFDYWGQGALVTVSAGGSSGEVQLVESGGGLIQPGGSLRLSCAASGVIVSYNYMNWVRQAPGKGLEWVSVIYSGGSTFYADSVRGRFTISRDNSKNTLYLQMNSLRAEDTAVYYCARDLGPAGAFDIWGLGTMVTVSSASGGSGDKTHTCPPCPAPELLGGPSVFLFPPKPKDTLMISRTPEVTCVVVDVSHEDPEVKFNWYVDGVEVHNAKTKPREEQYNSYVVSVLTVLHQDWLNGKEYKCKVSNKALPAPIEKTISKAKGQPREPQVCTLPPSRDELTKNQVSLSCAVKGFYPSDIAVEWESNGQPENNYKTTPPVLDSDGSFFLVSKLTVDKSRWQQGNVFSCSVLHEALHSHYTQKSLSLSPG
[6]
  IC50, pseudovirus neutralization: 0.0205 µg/mL
  IC80, pseudovirus neutralization: 0.0727 µg/mL
[7]
  IC50, pseudovirus neutralization: 0.0235 µg/mL
  IC80, pseudovirus neutralization: 0.0518 µg/mL

B5: MX1089 (antibody)
chain 1: B4 chain 1
chain 2: DTVMTQSPLSLPVTPGEPASISCRSSQSLLNSNGYNYLDWYVQKPGQSPQLLIYLGSNRASGVPDRFSGSGSGTDFTLKISRVEAEDVGVYYCMQPLQTPLFTFGPGTKVEIKGGSSGEIVLTQSPGTLSLSPGERATLSCRASQSVSSSYLAWYQQKPGQAPRLLIYSASSRATGIPDRFSGSGSGTDFTLTISRLEPEDFAVYFCQQYVGLTGWTFGQGTKVEIKGGGGSGGSGSGGGGSASGSGQMQLVQSGPEVKKPGTSVKVSCKASGFTFTSSAVQWVRQRQRLEWIGWIVVGSGNTNYAQKFQERVTITRDMSTSTAYMELSSLRSEDTAVYYCAAPNCSNVVCYDGFDIWGQGTMVTVSSGGSSGQVTLRESGPALVKPTQTLTLTCTFSGFSLSTRGVCVSWIRQPPGKALEWLAFIDWDDDKYYNTSLKTRLTISKDTSKNQVVLTMTNVHPVDTATYYCARISSHHGSSWCTTFDYWGQGALVTVSAASGGSGDKTHTCPPCPAPELLGGPSVFLFPPKPKDTLMISRTPEVTCVVVDVSHEDPEVKFNWYVDGVEVHNAKTKPREEQYNSYVVSVLTVLHQDWLNGKEYKCKVSNKALPAPIEKTISKAKGQPREPQVCTLPPSRDELTKNQVSLSCAVKGFYPSDIAVEWESNGQPENNYKTTPPVLDSDGSFFLVSKLTVDKSRWQQGNVFSCSVLHEALHSHYTQKSLSLSPG
[6]
  IC50, pseudovirus neutralization: 0.0368 µg/mL
  IC80, pseudovirus neutralization: 0.0687 µg/mL
[7]
  IC50, pseudovirus neutralization: 0.0132 µg/mL
  IC80, pseudovirus neutralization: 0.0294 µg/mL

B6: MX1020 (antibody)
chain: DTVMTQSPLSLPVTPGEPASISCRSSQSLLNSNGYNYLDWYVQKPGQSPQLLIYLGSNRASGVPDRFSGSGSGTDFTLKISRVEAEDVGVYYCMQPLQTPLFTFGPGTKVEIKGGSSGDTVMTQSPLSLPVTPGEPASISCRSSQSLLNSNGYNYLDWYVQKPGQSPQLLIYLGSNRASGVPDRFSGSGSGTDFTLKISRVEAEDVGVYYCMQPLQTPLFTFGPGTKVEIKGGGGSGGSGSGGGGSASGSGQVTLRESGPALVKPTQTLTLTCTFSGFSLSTRGVCVSWIRQPPGKALEWLAFIDWDDDKYYNTSLKTRLTISKDTSKNQVVLTMTNVHPVDTATYYCARISSHHGSSWCTTFDYWGQGALVTVSAGGSSGQVTLRESGPALVKPTQTLTLTCTFSGFSLSTRGVCVSWIRQPPGKALEWLAFIDWDDDKYYNTSLKTRLTISKDTSKNQVVLTMTNVHPVDTATYYCARISSHHGSSWCTTFDYWGQGALVTVSAASGGSGDKTHTCPPCPAPELLGGPSVFLFPPKPKDTLMISRTPEVTCVVVDVSHEDPEVKFNWYVDGVEVHNAKTKPREEQYNSYVVSVLTVLHQDWLNGKEYKCKVSNKALPAPIEKTISKAKGQPREPQVYTLPPSRDELTKNQVSLTCLVKGFYPSDIAVEWESNGQPENNYKTTPPVLDSDGSFFKKLTVDKSRWQQGNVFSCSVLHEALHSHYTQKSLSLSPG
[1]
  IC50, pseudovirus neutralization: 0.00778 µg/mL
  IC80, pseudovirus neutralization: 0.0174 µg/mL
[2]
  IC50, pseudovirus neutralization: 0.0036 µg/mL
  IC80, pseudovirus neutralization: 0.00794 µg/mL
[3]
  IC50, pseudovirus neutralization: 0.00778 µg/mL
  IC80, pseudovirus neutralization: 0.0174 µg/mL

B7: MX1029 (antibody)
chain: EIVLTQSPGTLSLSPGETATLSCRASQSFSSDLAWYQQKPGQAPRLLIYGASSRATGIPDRFSGSGSGTDFTLTISRLEPADFAVYYCQQYGSSPPVTFGGGTKVEIKGGSSGEIVLTQSPGTLSLSPGETATLSCRASQSFSSDLAWYQQKPGQAPRLLIYGASSRATGIPDRFSGSGSGTDFTLTISRLEPADFAVYYCQQYGSSPPVTFGGGTKVEIKGGGGSGGSGSGGGGSASGSGEVQLVESGGGLIQPGGSLRLSCAASGVIVSYNYMNWVRQAPGKGLEWVSVIYSGGSTFYADSVRGRFTISRDNSKNTLYLQMNSLRAEDTAVYYCARDLGPAGAFDIWGLGTMVTVSSGGSSGEVQLVESGGGLIQPGGSLRLSCAASGVIVSYNYMNWVRQAPGKGLEWVSVIYSGGSTFYADSVRGRFTISRDNSKNTLYLQMNSLRAEDTAVYYCARDLGPAGAFDIWGLGTMVTVSSASGGSGDKTHTCPPCPAPELLGGPSVFLFPPKPKDTLMISRTPEVTCVVVDVSHEDPEVKFNWYVDGVEVHNAKTKPREEQYNSYVVSVLTVLHQDWLNGKEYKCKVSNKALPAPIEKTISKAKGQPREPQVYTLPPSRDELTKNQVSLTCLVKGFYPSDIAVEWESNGQPENNYKTTPPVLDSDGSFFKKLTVDKSRWQQGNVFSCSVLHEALHSHYTQKSLSLSPG
[1]
  IC50, pseudovirus neutralization: 0.0541 µg/mL
  IC80, pseudovirus neutralization: 0.0694 µg/mL
[2]
  IC50, pseudovirus neutralization: 0.00862 µg/mL
  IC80, pseudovirus neutralization: 0.0341 µg/mL
[3]
  IC50, pseudovirus neutralization: 0.0541 µg/mL
  IC80, pseudovirus neutralization: 0.0694 µg/mL

— US20240109955A1 (published 2024)
